# Source: publication PMC6721932, “Cross-reactivity of a rice NLR immune receptor to distinct effectors from the rice blast pathogen Magnaporthe oryzae provides partial disease resistance” (The Journal of Biological Chemistry, 2019)
# B1: AVR–Pia (residues 20–85), tags removed (natural protein)
# chain: APARFCVYYDGHLPATRVLLMYVRIGTTATITARGHEFEVEAKDQNCKVILTNGKQAPDWLAAEPY
# Target: T1, Pikp–HMA (integrated heavy metal-associated domain of the rice NLR Pikp-1, residues 186–263) (rice (Oryza sativa), UniProt E9KPB5 186-263)
# T1 sequence: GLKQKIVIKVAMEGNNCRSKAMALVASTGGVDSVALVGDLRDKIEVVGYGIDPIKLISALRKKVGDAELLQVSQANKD
# Assay: SEC
# Conditions: both partners purified
binder,measurement,value
B1,binding result,binds
